Results as given in patent EP0303681B1 (priority 1987, dated 1988).

Test: Pharmacokinetics / disposition of cyclophosphamide
Settings: six patients, XMMME-001-RTA 0.1 mg/kg/day x 5 days in conjunction with cyclophosphamide IV push

## O=P1(N(CCCl)CCCl)NCCCO1 (stereo not shown)
  interaction between the immunotoxin and cyclophosphamide in their distribution, metabolism or excretion: no noticeable interaction
